{
  "source": "paper PMC9157191",
  "about": "“The ex vivo pharmacology of HIV-1 antiretrovirals differs between macaques and humans” (iScience, 2022)",
  "key": {"[1]": {"assay": "Drug concentrations in human colorectal tissue explants (LC-MS/MS)", "format": "in vitro ADME", "conditions": "for AUC3h-15d / Cmax: Human colorectal explants, 3 h exposure"}, "[2]": {"assay": "Drug concentrations in Rhesus macaque colorectal tissue explants (LC-MS/MS)", "format": "in vitro ADME, Rhesus macaque (Macaca mulatta)", "conditions": "Rh. macaque colorectal explants, 3 h exposure"}, "[3]": {"assay": "Drug concentrations in Rhesus macaque ecto-cervical tissue explants (LC-MS/MS)", "format": "in vitro ADME, Rhesus macaque (Macaca mulatta)", "conditions": "Rh. macaque ecto-cervical explants, 3 h exposure"}, "[4]": {"assay": "Drug concentrations in Rhesus macaque vaginal tissue explants (LC-MS/MS)", "format": "in vitro ADME, Rhesus macaque (Macaca mulatta)", "conditions": "for AUC3h–15d / Cmax: Rh. macaque vaginal explants, 3 h exposure"}, "[5]": {"assay": "Drug concentrations in human ecto-cervical tissue explants (LC-MS/MS)", "conditions": "for AUC3h-15d / Cmax: Human ecto-cervical explants, 3 h exposure"}, "[6]": {"conditions": "Comb. gel, High [ ]: TFV 70 µM + MVC 3.8 µM"}, "[7]": {"conditions": "Comb. gel, Low [ ]: TFV 7 µM + MVC 0.38 µM"}, "[8]": {"conditions": "Single gel, High [ ]: TFV 70 µM or MVC 3.8 µM"}, "[9]": {"conditions": "Single gel, Low [ ]: TFV 7 µM or MVC 0.38 µM"}},
  "data": [
    {"substance": "Maraviroc [MVC]", "values": [
      {"measurement": "AUC3h-15d", "setting": "[1]; [6]", "value": 3.84, "unit": "ng·days/mg"},
      {"measurement": "Cmax", "setting": "[1]; [6]", "value": 1.86, "unit": "ng/mg"},
      {"measurement": "AUC3h-15d", "setting": "[1]; [7]", "value": 0.62, "unit": "ng·days/mg"},
      {"measurement": "Cmax", "setting": "[1]; [7]", "value": 0.29, "unit": "ng/mg"},
      {"measurement": "AUC3h-15d", "setting": "[1]; [8]", "value": 6.96, "unit": "ng·days/mg"},
      {"measurement": "Cmax", "setting": "[1]; [8]", "value": 3.15, "unit": "ng/mg"},
      {"measurement": "AUC3h-15d", "setting": "[1]; [9]", "value": 1.38, "unit": "ng·days/mg"},
      {"measurement": "Cmax", "setting": "[1]; [9]", "value": 0.22, "unit": "ng/mg"},
      {"measurement": "AUC3h-15d fold increase, high versus low concentration gels", "setting": "[1]; human colorectal tissue", "value": 5.4, "unit": "fold"},
      {"measurement": "AUC3h–15d", "setting": "[2]; [6]", "value": 54.31, "unit": "ng·days/mg"},
      {"measurement": "Cmax", "setting": "[2]; [6]", "value": 35.40, "unit": "ng/mg"},
      {"measurement": "AUC3h–15d", "setting": "[2]; [7]", "value": 4.72, "unit": "ng·days/mg"},
      {"measurement": "Cmax", "setting": "[2]; [7]", "value": 2.79, "unit": "ng/mg"},
      {"measurement": "AUC3h–15d", "setting": "[2]; [8]", "value": 37.51, "unit": "ng·days/mg"},
      {"measurement": "Cmax", "setting": "[2]; [8]", "value": 24.34, "unit": "ng/mg"},
      {"measurement": "AUC3h–15d", "setting": "[2]; [9]", "value": 1.78, "unit": "ng·days/mg"},
      {"measurement": "Cmax", "setting": "[2]; [9]", "value": 0.95, "unit": "ng/mg"},
      {"measurement": "AUC3h–15d", "setting": "[3]; [6]", "value": 9.03, "unit": "ng·days/mg"},
      {"measurement": "Cmax", "setting": "[3]; [6]", "value": 1.19, "unit": "ng/mg"},
      {"measurement": "AUC3h–15d", "setting": "[3]; [7]", "value": 4.93, "unit": "ng·days/mg"},
      {"measurement": "Cmax", "setting": "[3]; [7]", "value": 0.64, "unit": "ng/mg"},
      {"measurement": "AUC3h–15d", "setting": "[3]; [8]", "value": 7.17, "unit": "ng·days/mg"},
      {"measurement": "Cmax", "setting": "[3]; [8]", "value": 0.94, "unit": "ng/mg"},
      {"measurement": "AUC3h–15d", "setting": "[3]; [9]", "value": 0.95, "unit": "ng·days/mg"},
      {"measurement": "Cmax", "setting": "[3]; [9]", "value": 0.122, "unit": "ng/mg"},
      {"measurement": "AUC3h–15d", "setting": "[4]; [6]", "value": 7.22, "unit": "ng·days/mg"},
      {"measurement": "Cmax", "setting": "[4]; [6]", "value": 0.95, "unit": "ng/mg"},
      {"measurement": "AUC3h–15d", "setting": "[4]; [7]", "value": 3.22, "unit": "ng·days/mg"},
      {"measurement": "Cmax", "setting": "[4]; [7]", "value": 0.43, "unit": "ng/mg"},
      {"measurement": "AUC3h–15d", "setting": "[4]; [8]", "value": 10.88, "unit": "ng·days/mg"},
      {"measurement": "Cmax", "setting": "[4]; [8]", "value": 1.44, "unit": "ng/mg"},
      {"measurement": "AUC3h–15d", "setting": "[4]; [9]", "value": 1.44, "unit": "ng·days/mg"},
      {"measurement": "Cmax", "setting": "[4]; [9]", "value": 0.19, "unit": "ng/mg"},
      {"measurement": "AUC3h-15d fold increase, high versus low concentration gels", "setting": "[4]; macaque vaginal explants", "value": 3.8, "unit": "fold"},
      {"measurement": "AUC3h-15d", "setting": "[5]; [6]", "value": 5.55, "unit": "ng·days/mg"},
      {"measurement": "Cmax", "setting": "[5]; [6]", "value": 2.66, "unit": "ng/mg"},
      {"measurement": "AUC3h-15d", "setting": "[5]; [7]", "value": 1.22, "unit": "ng·days/mg"},
      {"measurement": "Cmax", "setting": "[5]; [7]", "value": 0.59, "unit": "ng/mg"},
      {"measurement": "AUC3h-15d", "setting": "[5]; [8]", "value": 4.95, "unit": "ng·days/mg"},
      {"measurement": "Cmax", "setting": "[5]; [8]", "value": 2.61, "unit": "ng/mg"},
      {"measurement": "AUC3h-15d", "setting": "[5]; [9]", "value": 1.23, "unit": "ng·days/mg"},
      {"measurement": "Cmax", "setting": "[5]; [9]", "value": 0.56, "unit": "ng/mg"},
      {"measurement": "AUC3h-15d fold increase, high versus low concentration gels", "setting": "[5]; human ecto-cervical explants", "value": 4.3, "unit": "fold"},
      {"measurement": "Cmax fold increase", "setting": "[5]; human ecto-cervical explants versus macaque tissue", "value": 2.2, "unit": "fold"}
    ]}
  ]
}
